Positions count from the first letter of the chain named. Tags and fusion partners may be left off the protein sequences shown. For at least one entry, the source does not settle the construct or the ends of the probe. For part of these data: At least one verdict rests on a figure or table, not on a statement of the authors.
Assays:
Assay in all cases: EMSA
[1] = molecular target: T1, BT4124-RRAD C1262A,H1263D (Bacteroides thetaiotaomicron VPI 5482) (UniProt Q8A097); conditions: 50 mM Tris pH 7.6, 200 mM NaCl, 2.5% glycerol, 2 mM MgCl2, 0.5 mM DTT, 0.1 ug/uL BSA, 10 ng/uL salmon sperm DNA, ~2.5 ng/uL DNA, 30 min, temperature not stated, recombinant protein, residues 1186-1450, protein details: C-terminal GSGAGGHHHHHHG, label: 5'-FAM on strand 1
T1 sequence (looked up): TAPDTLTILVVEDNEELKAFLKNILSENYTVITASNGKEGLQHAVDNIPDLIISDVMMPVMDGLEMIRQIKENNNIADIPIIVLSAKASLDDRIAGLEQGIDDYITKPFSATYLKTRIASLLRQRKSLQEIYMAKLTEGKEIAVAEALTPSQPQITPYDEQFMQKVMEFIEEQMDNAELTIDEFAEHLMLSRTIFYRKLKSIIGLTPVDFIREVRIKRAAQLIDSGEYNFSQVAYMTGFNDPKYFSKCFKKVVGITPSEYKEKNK

[2] = molecular target: T2, BT4124-RRAG C1262A,H1263G (Bacteroides thetaiotaomicron VPI 5482) (UniProt Q8A097); conditions: 50 mM Tris pH 7.6, 200 mM NaCl, 2.5% glycerol, 2 mM MgCl2, 0.5 mM DTT, 0.1 ug/uL BSA, 10 ng/uL salmon sperm DNA, ~2.5 ng/uL DNA, 30 min, temperature not stated, recombinant protein, residues 1186-1450, protein details: C-terminal GSGAGGHHHHHHG, label: 5'-FAM on strand 1
T2 sequence (looked up): T1 sequence (looked up) with D78G

[3] = molecular target: T3, BT4663-RRAD C1174A,H1175D (Bacteroides thetaiotaomicron VPI 5482) (UniProt Q89YR8); conditions: phosphorylated with 50 mM PAM; 50 mM Tris pH 7.6, 200 mM NaCl, 2.5% glycerol, 2 mM MgCl2, 0.5 mM DTT, 0.1 ug/uL BSA, 10 ng/uL salmon sperm DNA, ~2.5 ng/uL DNA; 30 min, temperature not stated; recombinant protein; residues 1097-1353; protein details: C-terminal GSGAGGHHHHHHG; label: 5'-FAM on strand 1
T3 sequence (looked up): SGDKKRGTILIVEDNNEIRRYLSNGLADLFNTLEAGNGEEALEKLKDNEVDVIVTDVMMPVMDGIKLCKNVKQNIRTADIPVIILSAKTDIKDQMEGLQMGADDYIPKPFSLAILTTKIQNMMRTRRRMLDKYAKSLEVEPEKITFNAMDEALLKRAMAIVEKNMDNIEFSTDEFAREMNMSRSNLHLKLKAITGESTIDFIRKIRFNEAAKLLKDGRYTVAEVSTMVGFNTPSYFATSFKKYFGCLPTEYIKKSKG

[4] = molecular target: T4, BT4663-RRAG C1174A,H1175G (Bacteroides thetaiotaomicron VPI 5482) (UniProt Q89YR8); conditions: phosphorylated with 50 mM PAM; 50 mM Tris pH 7.6, 200 mM NaCl, 2.5% glycerol, 2 mM MgCl2, 0.5 mM DTT, 0.1 ug/uL BSA, 10 ng/uL salmon sperm DNA, ~2.5 ng/uL DNA; 30 min, temperature not stated; recombinant protein; residues 1097-1353; protein details: C-terminal GSGAGGHHHHHHG; label: 5'-FAM on strand 1
T4 sequence (looked up): T3 sequence (looked up) with D79G

Measured: binding result

GATGGTAGTGTGGGGTCTCATGCCTCGTCTTTATTCATTTTATGCCGGAAAAACAAAAAATACTATCGTAAAAACAAATATTACACATCCCACAAGCCCCAAAAACATAATTTTGCACCAGTGAGAACTCTAAGAGTGGACACACTCGAATATTAATAATCTAATATAAAAGAACAAAAGATGCCTAAAGGAATGAAGAACGAGACCGAAATTCAATAAGGAGG (double strand) [bt4114 promoter fragment]
binds: [1]; phosphorylated with 50 mM PAM | [1]; unphosphorylated | [2]; phosphorylated with 50 mM PAM | [2]; unphosphorylated

GATGGTAGTGTGGGGTCTCATGCCTAGGATACAGGAGATAAACAGCTTTTTTAAACAAAAACAACATATGTCTCAACAAATTTGATATCAAAAAAATCATTTTTGAACAAAGTATGAACAACCTAAATTAAAGAATCTAATTAATGAGGTTACATTTGCAACAGTAAAATAACACTTTTAATAATTATAAAACCTAATAAAGTATGAAGAACGAGACCGAAATTCAATAAGGAGG (double strand) [bt4662 promoter fragment]
binds: [3] | [4]
